From patent US20050026235A1 (priority 2003, published 2005) come the findings set out here.

By UniProt entry, the sequences of proteins in these tests, tags left out. Residues count along the entry.
UniProt P09598, 39-283 limits assumed: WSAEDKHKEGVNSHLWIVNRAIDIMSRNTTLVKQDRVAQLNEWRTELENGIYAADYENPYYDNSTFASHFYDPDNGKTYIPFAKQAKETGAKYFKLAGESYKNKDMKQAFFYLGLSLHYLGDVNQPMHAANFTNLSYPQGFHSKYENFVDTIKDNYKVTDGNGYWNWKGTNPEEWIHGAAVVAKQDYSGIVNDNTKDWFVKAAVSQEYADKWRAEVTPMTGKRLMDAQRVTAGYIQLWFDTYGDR

The test addresses PLC from Bacillus cereus (Bacillus cereus, UniProt P09598). The settings on record: DOPC/cholesterol/compound 60 (60/20/20) 100 nm LUV, PLC 0.125 nM, Tris saline.

As for “1,2-dioleoyl-sn-glycero-3-phosphoethanolamine-N-(Oregon Green® 488, 5-isomer) [compound 60]”, the Vmax stood at 0.21±0.05 RFU/s. Moreover, under “read-out: observed Km”, the Michaelis constant (Km) came out at 8.6 ± 4.5 nM.
